Results deposited as PubChem BioAssay AID504761 (Drosophila RNAi Screening Center, 2011).
Purpose: 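Insect host genes that dengue virus relies on to spread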 (primary screen). System: D.Mel-2 cells from Drosophila. Reagent: long dsRNA against Drosophila genes. Treatment: infection with dengue virus type 2; dose and infection time not stated. Measurement: 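Per well on two replicate plates, imaging gave the percent of cells positive for viral envelope protein, ranked by infection, and a nuclear count of cells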. Direction: infection score: higher = more virus-infected cells; cell count: higher = more cells in the well. Call rule: 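Very low infection ranking in both replicate wells (chance probability at most 0.065), then a retest showing infection dropped 1.5-fold or more at p below 0.05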. Meaning of the calls: active = confirmed: knock-down lowers infection; inactive = not picked or not confirmed.
The deposit covers about 22,000 reagents; shown is a random part of those with a known target gene and a result. In the full data, 116 (0.52%) were called active. 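Calls depend on retest data that are not deposited; infection was ranked per plate without normalising between plates; the unit of the infection score is not given.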 Raw values vary from plate to plate and are shown uncorrected. Names joined by + are all predicted targets of the reagent. Not stated in the record: the amount of reagent, the time to read-out.

Gene	DRSC id	infection score, replicate 1	infection score, replicate 2	cell count, replicate 1	cell count, replicate 2	activity call
witty	DRSC02378	8.31	11.4	5751	5922	inactive
witty	DRSC21650	2.84	3.95	6023	6349	inactive
witty	DRSC26154	13.4	6.55	4980	6029	inactive
Dnali1	DRSC16158	9.92	9.24	6412	6842	inactive
LSm3	DRSC15920	3.1	2.63	6332	6201	inactive
CG5592	DRSC10524	1.33	2.96	6255	5782	inactive
CG7029	DRSC16177	2.18	7.85	6592	6347	inactive
CG7029	DRSC23898	5.31	9.76	6106	5279	inactive
Twdlalpha	DRSC19914	21.9	13.7	4957	5617	inactive
Twdlalpha	DRSC28661	18.2	12.8	5718	3864	inactive
CG32454	DRSC11652	6.72	8.47	2350	6833	inactive
cato	DRSC07589	9.91	16.2	5822	2046	inactive
CG33981 + fab1	DRSC07412	10.1	11	5584	5814	inactive
CG33981 + fab1	DRSC28045	4.08	12.1	6324	6236	inactive
mtsh	DRSC03070	2.94	23.1	5716	3506	inactive
RpL7	DRSC03417	5.12	2.34	1758	1713	inactive
RpL7	DRSC29340	3.14		827	331	inactive
dob	DRSC19948	6.16	1.54	6505	6287	inactive
L2HGDH	DRSC02082	9.59	6.87	6446	6418	inactive
L2HGDH	DRSC25864	1.27	4.21	6198	6173	inactive
nkt	DRSC10144	9.64	6.86	4200	6416	inactive
Kul	DRSC15404	8.29	4.81	1978	6005	inactive
Kul	DRSC25888	8.03	1.18	6138	6271	inactive
alphaTub67C	DRSC11321	1.22	2.86	5504	5595	inactive
alphaTub67C	DRSC25162	10.1	19.8	4019	4546	inactive
ACXE	DRSC00847	19.5	0.3	5227	661	inactive
wts	DRSC22975	0.61	1.46	6110	6972	inactive
wts	DRSC25766	0.61	4.38	6212	5596	inactive
CG43737	DRSC19609	6.73	5.8	6348	6915	inactive
Pdf	DRSC16786	3.94	7.96	6473	5993	inactive
Gyg	DRSC03850	0.08	0.34	5996	5362	inactive
Gyg	DRSC04556	9.68	6.95	6033	6070	inactive
Gyg	DRSC28959	3.96	13.9	3785	2661	inactive
CARPB	DRSC18437	0.57	1.2	6698	7089	inactive
CARPB	DRSC18438	7.27	7.01	6783	6774	inactive
CG12698	DRSC19485	2.49	6.84	6384	6268	inactive
CG12698	DRSC27291	13.2	5.78	5945	6042	inactive
csul	DRSC07599		17.5	459	5092	inactive
mRpL52	DRSC06585	10.5	14.7	6605	6227	inactive

Laid out differently: entries from further up.
{"Gene": "witty", "DRSC id": "DRSC21650", "infection score, replicate 1": 2.84, "infection score, replicate 2": 3.95, "cell count, replicate 1": 6023, "cell count, replicate 2": 6349, "activity call": "inactive"}
{"Gene": "witty", "DRSC id": "DRSC26154", "infection score, replicate 1": 13.4, "infection score, replicate 2": 6.55, "cell count, replicate 1": 4980, "cell count, replicate 2": 6029, "activity call": "inactive"}
{"Gene": "Dnali1", "DRSC id": "DRSC16158", "infection score, replicate 1": 9.92, "infection score, replicate 2": 9.24, "cell count, replicate 1": 6412, "cell count, replicate 2": 6842, "activity call": "inactive"}
{"Gene": "LSm3", "DRSC id": "DRSC15920", "infection score, replicate 1": 3.1, "infection score, replicate 2": 2.63, "cell count, replicate 1": 6332, "cell count, replicate 2": 6201, "activity call": "inactive"}
{"Gene": "CG5592", "DRSC id": "DRSC10524", "infection score, replicate 1": 1.33, "infection score, replicate 2": 2.96, "cell count, replicate 1": 6255, "cell count, replicate 2": 5782, "activity call": "inactive"}
{"Gene": "CG7029", "DRSC id": "DRSC16177", "infection score, replicate 1": 2.18, "infection score, replicate 2": 7.85, "cell count, replicate 1": 6592, "cell count, replicate 2": 6347, "activity call": "inactive"}
